Results on 37 compounds are retold here after patent US8906906B2, “Viral replication inhibitors” (Katholieke Universiteit Leuven, priority 2009, dated 2014).

This series relates to HIV (MT4-IIIB). Put plainly: Anti-HIV activity: inhibition of HIV-induced cytopathogenic effect in MT-4 cells (MTT). It counts as cell-based. Conditions: selectivity index, ratio of CC50 to IC50. For orientation: Damage to the host cells serves as the signal in cytopathic effect assays.
In the case of `CCCC(C(=O)O)c1c(C)nc(-c2ccc(C)cc2)nc1-c1ccc(C)cc1` (stereo not shown) [cpd 10], the SI is recorded as 3. In the case of `CCCC(C(=O)O)c1c(C)nc(N(C)C2CCCCC2)nc1-c1ccc(C)cc1` (stereo not shown) [cpd 12] it was 2; in that of `CCCC(C(=O)O)c1c(C)nc(-c2ccccc2)nc1-c1ccc(C)cc1` (stereo not shown) [cpd 14], 5.

`CCCC(C(=O)O)c1c(C)nc(-c2ccccc2Cl)nc1-c1ccccc1` (stereo not shown) [cpd 16]: the SI was more than 1. `CCCC(C(=O)O)c1c(C)nc(N2CCCCC2)nc1-c1ccccc1` (stereo not shown) [cpd 20]: the SI worked out at 8.

Take `CCCC(C(=O)O)c1c(C)nc(N2CCCCC2)nc1-c1ccc(C)cc1` (stereo not shown) [cpd 22]: the SI amounted to 11. For `CCCC(C(=O)O)c1c(C)nc(-c2ccccc2)nc1-c1ccccc1` (stereo not shown) [cpd 24], the SI was more than 2. The same measure for `CCCC(C(=O)O)c1c(C)nc(-c2ccccc2)nc1-c1cccc(O)c1` (stereo not shown) [cpd 26]: more than 2; for `CCCC(C(=O)O)c1c(C)nc(N2CCCC2)nc1-c1ccc(C)cc1` (stereo not shown) [cpd 30]: 9; for `CCCC(C(=O)O)c1c(C)nc(N2CCCC(C(=O)NCC(C)C)C2)nc1-c1ccc(C)cc1` (stereo not shown) [cpd 38]: 24. With `CCCC(C(=O)O)c1c(C)nc(N2CCCC(C)C2)nc1-c1ccc(C)cc1` (stereo not shown) [cpd 40], the SI stood at 5. The same measure for `CCCC(C(=O)O)c1c(C)nc(N2CCCN(CC)CC2)nc1-c1ccc(C)cc1` (stereo not shown) [cpd 56]: more than 2; for `CCCC(C(=O)O)c1c(C)nc(N2CCc3ccccc32)nc1-c1ccc(C)cc1` (stereo not shown) [cpd 58]: 13; for `CCCC(C(=O)O)c1c(C)nc(-c2ccccc2)nc1N1CCCCC1` (stereo not shown) [cpd 60]: 5.

Regarding `CCCC(C(=O)O)c1c(C)nc(-c2ccccc2)nc1N1CCCCCC1` (stereo not shown) [cpd 62], the SI is recorded as 4. As to `CCCC(C(=O)O)c1c(C)nc(-c2ccccc2)nc1N1CCN(C)CC1` (stereo not shown) [cpd 64], the SI was more than 1.

Turning to `CCCC(C(=O)O)c1c(C)nc(-c2ccccc2)nc1-c1ccc2c(c1)CCO2` (stereo not shown) [cpd 70], the SI is 2. Regarding `CCCC(C(=O)O)c1c(C)nc(-c2ccccc2)nc1-c1ccc2occc2c1` (stereo not shown) [cpd 72], the SI is reported as 2.

For `CCCC(C(=O)O)c1c(C)nc(-c2ccccc2)nc1-c1ccc(Cl)cc1F` (stereo not shown) [cpd 94], the SI was found to be 4.

`CCCC(C(=O)O)c1c(C)nc(-c2ccccc2)nc1-c1ccc(C)cc1F` (stereo not shown) [cpd 98]: the SI turned out to be 3. Consider `CCCC(C(=O)O)c1c(C)nc(-c2ccccc2)nc1-c1ccc(Cl)cc1` (stereo not shown) [cpd 102], for which the SI is recorded as 11.

As to `CCCC(C(=O)O)c1c(C)nc(-c2ccccc2)nc1-c1ccc(Cl)cc1O` (stereo not shown) [cpd 111], the SI turned out to be 4. Turning to `CCCC(C(=O)O)c1c(C)nc(-c2ccccc2)nc1-c1ccc(C)cc1O` (stereo not shown) [cpd 119], the SI was found to be 4.

Consider `COCCC(C(=O)O)c1c(C)nc(N2CCCCC2)nc1-c1ccc(C)cc1` (stereo not shown) [cpd 122], for which the SI is given as more than 12. In the case of `Cc1ccc(-c2nc(N3CCCCC3)nc(C)c2C(CCCC(F)(F)F)C(=O)O)cc1` (stereo not shown) [cpd 124] it was 23. Consider `CCCC(C(=O)O)c1c(C)nc(N2CCCCC2)nc1-c1ccc(F)cc1F` (stereo not shown) [cpd 130], for which the SI amounted to 4. As for `CCCC(C(=O)O)c1c(C)nc(N2CCCCC2)nc1-c1ccc(C)cc1C` (stereo not shown) [cpd 132], the SI is given as 3. In the case of `CCCC(C(=O)O)c1c(C)nc(N2CCCCC2)nc1-c1ccc(OC)cc1F` (stereo not shown) [cpd 136] it was 3; in that of `CCCC(C(=O)O)c1c(C)nc(N2CCCCC2)nc1-c1ccc(C)cc1Cl` (stereo not shown) [cpd 144], 9. In the case of `CCCC(C(=O)O)c1c(C)nc(N2CCCCC2)nc1-c1ccc(Cl)cc1F` (stereo not shown) [cpd 146] it was 8; in that of `CCCC(C(=O)O)c1c(C)nc(N2CCCCC2)nc1N1CCCCC1` (stereo not shown) [cpd 148], 8.

In the case of `Cc1ccc(-c2nc(N3CCCCC3)nc(C)c2C(CC(C)(C)C)C(=O)O)cc1` (stereo not shown) [cpd 152], the SI is on record as 21. In the case of `Cc1ccc(-c2nc(N3CCCCC3)nc(C)c2C(OC(C)(C)C)C(=O)O)cc1` (stereo not shown) [cpd 154] it was 111; in that of `CCCC(C(=O)O)c1c(C)nc(-c2ccccc2O)nc1-c1ccc(C)cc1` (stereo not shown) [cpd 158], 7. For the compound `CCCC(C(=O)O)c1c(C)nc(-c2cnn(C)c2)nc1-c1ccc(C)cc1` (stereo not shown) [cpd 162], the SI is more than 3. Turning to `CCCC(C(=O)O)c1c(C)nc(NCc2ccccc2)nc1-c1ccc(C)cc1` (stereo not shown) [cpd 168], the SI came to 5. In the case of `CCCC(C(=O)O)c1c(C)nc(NCC(C)(C)C)nc1-c1ccc(C)cc1` (stereo not shown) [cpd 174], the SI is given as 6.
